The values below come from ChEMBL document CHEMBL1146972, “Specific inhibitors of Plasmodium falciparum thioredoxin reductase as potential antimalarial agents” (Bioorg Med Chem Lett, 2006).

By UniProt entry, the sequences of proteins in these tests, tags left out. Where a name states a change or a piece, a line headed by the entry shows the natural chain unless it says otherwise.
UniProt O15770: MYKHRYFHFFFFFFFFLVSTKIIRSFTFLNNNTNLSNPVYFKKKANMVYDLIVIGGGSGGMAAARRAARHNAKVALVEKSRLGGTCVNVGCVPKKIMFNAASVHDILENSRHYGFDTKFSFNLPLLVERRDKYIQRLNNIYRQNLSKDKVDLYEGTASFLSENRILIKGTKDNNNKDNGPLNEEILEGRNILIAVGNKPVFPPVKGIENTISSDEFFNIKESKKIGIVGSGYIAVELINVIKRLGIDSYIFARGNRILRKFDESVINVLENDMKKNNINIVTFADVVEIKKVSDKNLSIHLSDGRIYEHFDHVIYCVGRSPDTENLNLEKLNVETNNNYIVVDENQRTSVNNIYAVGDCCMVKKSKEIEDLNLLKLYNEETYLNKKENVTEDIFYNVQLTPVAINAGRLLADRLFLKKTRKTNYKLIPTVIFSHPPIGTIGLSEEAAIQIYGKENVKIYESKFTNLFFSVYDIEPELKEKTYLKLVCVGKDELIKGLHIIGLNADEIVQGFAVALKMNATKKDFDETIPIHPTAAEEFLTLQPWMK

The test concerns the target Glutathione reductase (Plasmodium falciparum 3D7) (UniProt O15770). As to the kind of experiment: Inhibition of Plasmodium falciparum GR at 0.5 uM.

What is called inhibition is the share of the control response that was lost under treatment. Lower therefore signals little suppression. In turn, `O=[N+]([O-])c1ccc(Sc2ccc([N+](=O)[O-])cc2[N+](=O)[O-])c([N+](=O)[O-])c1` came in with an inhibition of 45%.
